Laboratory results reported in patent US11643438B2, “Antimicrobial peptides and methods of use” (priority 2018, dated 2023).
*1 amine or outer side, *2 acyl side, *3 side chain or, on linkers, in order; H or OH if unused. Where a SMILES comes first, the peptide text is derived from it. [ ]: non-standard residue; d: D form. X2 = CC[C@H](C)C[C@H](C)C[C@H](C)C[C@H](N[*:1])C(=O)[*:2]; X4 = CCC(C)CC(C)CC(C)CC(N[*:1])C(=O)[*:2]; X1 = CC[C@@H](C)[C@@H](O[*:1])C(=O)[*:2]; NMeVal(β-OH) = CN[C@H](C(=O)O)C(C)(C)O; aIle = CC[C@@H](C)[C@H](N)C(=O)O; X3 = CCC(C)C(O[*:1])C(=O)[*:2]; NMeV = CN[CH](C(=O)O)C(C)C; Sar = CNCC(=O)O

Legend:
[1] = system: C. albicans, C. auris, C. neoformans, and A. fumigatus; assay: Effect of serum on antifungal activity, four fungal pathogens; type: cell-based; settings: 5% and 10% by volume serum added to the fungal culture medium
[2] = system: panel of fungal species that are known to be plant pathogens; assay: MIC/MFC against panel of 8 plant pathogen isolates; type: cell-based; settings: tested ranges of 0.32 μM to 10 μM
Description: Three different forms of persephacins were isolated.

Q: How did the “change of antifungal activity with serum” value [1] turn out when C[C@@H]1[C@H](O)[C@@H](C)/C=C/C=C/C=C/C=C/C=C/C=C/C=C/[C@H](O[C@@H]2O[C@H](C)[C@@H](O)[C@H](N)[C@@H]2O)C[C@@H]2O[C@](O)(C[C@@H](O)C[C@@H](O)[C@H](O)CC[C@@H](O)C[C@@H](O)CC(=O)O[C@H]1C)C[C@H](O)[C@H]2C(=O)O [AMB, amphotericin B] was run?
A: no loss of activity

Q: With CC[C@H](C)C[C@H](C)C[C@H](C)C[C@@H]1NC(=O)[C@H](C(C)C)N(C)C(=O)[C@@H]([C@H](C)CC)OC(=O)[C@H](C(C)(C)O)N(C)C(=O)[C@H](CC(C)C)NC(=O)[C@H](C(C)C)N(C)C(=O)[C@H]([C@H](C)CC)NC(=O)[C@@H]2CCCN2C(=O)CN(C)C1=O [Compound 1, persephacin] (cyclo(L[NMeVal(β-OH)][X1][NMeV][X2][Sar]P[aIle][NMeV])) as the molecule, how does the “change of antifungal activity with serum” value [1] read?
A: no loss of activity

Q: Which “inhibition over all 8 isolates” value [2] does the source give for CCC(C)CC(C)CC(C)CC1NC(=O)C(C(C)C)N(C)C(=O)C(C(C)CC)OC(=O)C(C(C)C)N(C)C(=O)C(CC(C)C)NC(=O)C(C(C)C)N(C)C(=O)C(C(C)CC)NC(=O)C2CCCN2C(=O)CN(C)C1=O (stereo not drawn) [Persephacin C, persephacin C] (cyclo([Sar]PI[NMeV]L[NMeV][X3][NMeV][X4]); configuration not given here) here?
A: did not achieve complete or even 75% inhibition
